Anti-infective test results gathered from many reports (values: NIAID ChemDB through PubChem).

All rows: whole-cell or culture tests; agent: Human cytomegalovirus; measure: EC50

ECn: concentration that inhibits the pathogen or its effect by n%. Neighbouring rows are from separate reports. An empty or dashed field is not shown.

| smiles | strain | cells | method | value |
|---|---|---|---|---|
| Cc1cccc2c1OP(=O)(OC[C@H]1O[C@@H](n3cc(/C=C/Br)c(=O)[nH]c3=O)C[C@@H]1OC(=O)[C@H](C)N)OC2 | AD169 | HELF | plaque count | >128 µg/mL |
| O=C(NCCc1c[nH]c2ccccc12)C1=Cc2ccncc2CC1 | 1117R73-1-2 | HFF | plaque count | 6.4 µM |
| Nc1c(S(=O)(=O)O)cc(Nc2cccc(S(=O)(=O)/C=C/S(=O)(=O)O)c2)c2c1C(=O)c1ccccc1C2=O | AD169 | HFF | cytopathic effect | 10 µM |
| Cc1cccc2c1OP(=O)(OC[C@H]1O[C@@H](n3cc(/C=C/Br)c(=O)[nH]c3=O)C[C@@H]1OC(=O)[C@H](N)Cc1ccccc1)OC2 | AD169 | HELF | plaque count | >128 µg/mL |
| O=c1ccn(Cc2ccccc2)c(=O)[nH]1 | AD169 | - | - | >247 µM |
| O=C1c2ccccc2C(=O)c2c(O)ccc(O)c21 | AD169 | MRC-5 | plaque count | >41.6 µM |
| Nc1ccnc2c1ncn2[C@H]1C[C@H](O)[C@@H](COP(=O)(O)COC(=O)[C@@H](N)CC(=O)O)O1 | DAVID | HEL | - | >100 µM |
| Cc1cccc2c1OP(=O)(OC[C@H]1O[C@@H](n3cc(/C=C/Br)c(=O)[nH]c3=O)C[C@@H]1OC(=O)[C@@H](N)CC(C)C)OC2 | AD169 | HELF | plaque count | >128 µg/mL |
| Cc1cc(C)cc(Cn2c(=O)ccn(CC#N)c2=O)c1 | AD169 | - | - | >74 µM |
| CCCNc1nc2c(Cl)cc(Cl)cc2n1[C@@H]1O[C@H](CO)[C@@H](O)[C@H]1O | - | MRC-5 | - | 0.15 µM |
| Nc1c(N=Nc2ccc([N+](=O)[O-])cc2)c(S(=O)(=O)O)cc2cc(S(=O)(=O)O)c(N=Nc3ccccc3)c(O)c12 | AD169 | HFF | cytopathic effect | >50 µM |
| COC(=O)[C@H](C)NP(=O)(OCC1C/C1=C/n1cnc2c(N)ncnc21)Oc1ccccc1 | TOWNE | HFF | virus yield | 0.14 µM |
| O=c1[nH]c(=O)n(C2CC(O)C(CO)O2)cc1/C=C/Br | AD169 | HEL | - | >100 µM |
| c1ccc(C2O[C@@H]2c2ccccc2)cc1 | TOWNE | HEL | virus yield | >50 µM |
| Nc1ncnc2c1ncn2[C@@H]1C[C@H](CO)[C@@H](O)[C@H]1O | AD-169 (100 PFU) | HEL | cytopathic effect | >100 µg/mL |
| C(=C\c1ccccc1)/c1ccccc1 | TOWNE | HEL | virus yield | >50 µM |
| Cc1cc(C)cc(Cn2c(=O)c(I)cn(Cc3ccccc3)c2=O)c1 | AD169 | - | - | >4.7 µM |
| N#Cc1cn([C@@H]2O[C@H](CO)[C@@H](O)[C@@H]2N)c2ncnc(N)c12 | TOWNE | HFF | virus yield | <110 µM |
| Cc1ccc(Nc2ccc(Nc3ccc(C)cc3)c3c2C(=O)c2ccccc2C3=O)cc1 | AD169 | HFF | cytopathic effect | >2 µM |
| CC(C)COC(=O)C(O)Cn1cnc2c(N)ncnc21 | AD-169 (100 PFU) | HEL | cytopathic effect | 22.5 µg/mL |
| N#Cc1cn([C@@H]2O[C@H](CO)[C@@H](O)[C@@H]2Br)c2ncnc(N)c12 | TOWNE | HFF | virus yield | <90 µM |
| Nc1ncnc2c1ncn2[C@@H]1C=C(CO)[C@@H](O)[C@H]1O | AD-169 (100 PFU) | HEL | cytopathic effect | 1.26 µg/mL |
| C(=C\c1ccncc1)/c1ccncc1 | TOWNE | HEL | virus yield | >50 µM |
| C=CS(=O)(=O)c1ccc(Nc2cc(S(=O)(=O)O)c(N)c3c2C(=O)c2ccccc2C3=O)cc1 | AD169 | HFF | cytopathic effect | 110 µM |
| Cc1cc(O)c2c(c1)C(=O)c1cccc(O)c1C2=O | AD169 | MRC-5 | plaque count | >39.3 µM |
| C=C1COc2c(N3CCN(c4nc5ccccc5s4)CC3)c(F)cc3c(=O)c(C(=O)O)cn1c23 | AD169 | - | - | 0.016 µg/mL |
| Nc1nccc2c1ncn2[C@@H]1O[C@H](CO)[C@@H](O)[C@H]1O | AD-169 (100 PFU) | HEL | cytopathic effect | 10 µg/mL |
| Br[C@H](c1ccccc1)[C@H](Br)c1ccccc1 | TOWNE | HEL | virus yield | >50 µM |
| N#Cc1cn([C@@H]2O[C@H](CO)[C@@H](O)[C@@H]2O)c2ncnc(N)c12 | TOWNE | HFF | virus yield | <14 µM |
| Nc1ncnc2c1ncn2C[C@H](O)CO | DAVIS (100 PFU) | HEL | cytopathic effect | >100 µg/mL |
| Nc1nc2c(ncn2COC(CO)CO)c(=O)[nH]1 | TOWNE | HFF | virus yield | <1.8 µM |
| CC(C)Nc1nc2cc(Cl)c(Cl)cc2n1[C@H]1O[C@@H](CO)[C@H](O)[C@@H]1O | AD169 | MRC-5 | hybridisation | 0.12 µM |
| Cc1cccc2c1OP(=O)(OC[C@H]1O[C@@H](n3cc(/C=C/Br)c(=O)[nH]c3=O)C[C@@H]1OC(=O)[C@@H]1CCCN1)OC2 | AD169 | HELF | plaque count | >128 µg/mL |
| CC(C)(C)C(=O)OCOC(=O)CN(CC(=O)OCOC(=O)C(C)(C)C)P(=O)(OC[C@H]1O[C@@H](n2ccc3c(N)ncnc32)C[C@@H]1O)Oc1ccccc1 | AD169 | HEL | - | >100 µM |
| N#CCn1ccc(=O)n(Cc2ccc(-c3ccccc3)cc2)c1=O | AD169 | - | - | 4.73 µM |
| O=C1c2cccc(O)c2C(=O)c2cccc(O)c21 | AD169 | MRC-5 | plaque count | >41.6 µM |
| Cc1cccc(Cn2c(=O)ccn(CC#N)c2=O)c1 | AD169 | - | - | >196 µM |
| O=C(NCCCC[C@@H](CNC(=O)c1cccc(O)c1O)NC(=O)c1cccc(O)c1O)c1cccc(O)c1O | AD169 | - | - | 0.7 µg/mL |
| C[C@H](N)C(=O)OCP(=O)(OC[C@H]1O[C@@H](n2ccc3c(N)ncnc32)C[C@@H]1O)Oc1ccccc1 | AD169 | HEL | - | >100 µM |
| OC[C@@H]1O[C@H](n2c(NC3CCC3)nc3cc(Cl)c(Cl)cc32)C[C@H]1O | AD169 | MRC-5 | hybridisation | 0.37 µM |
| Cc1cc(O)c2c(c1)Cc1cc(O)cc(O)c1C2=O | Ganciclovir-resistant | MRC-5 | plaque count | 4.7 µM |
| CC1=CC(S(=O)(=O)O)=C(Nc2cccc3c2C(=O)c2cccc(Nc4ccc(C)cc4S(=O)(=O)O)c2C3=O)CC1 | - | MRC-5 | luciferase | 183 µM |
| Cc1cc(C)c(Nc2cc(S(=O)(=O)O)c(N)c3c2C(=O)c2ccccc2C3=O)c(C)c1 | AD169 | HFF | cytopathic effect | 7 µM |
| Nc1nccc2c1ncn2[C@@H]1C=C(CO)[C@@H](O)[C@H]1O | AD-169 (100 PFU) | HEL | cytopathic effect | 0.27 µg/mL |
| C(=C/c1ccccc1)/c1ccccc1 | TOWNE | HEL | virus yield | >50 µM |

A second listing of 5 rows from above:

smiles	strain	cells	method	value
CC1=CC(S(=O)(=O)O)=C(Nc2cccc3c2C(=O)c2cccc(Nc4ccc(C)cc4S(=O)(=O)O)c2C3=O)CC1	-	MRC-5	luciferase	183 µM
N#CCn1ccc(=O)n(Cc2ccc(-c3ccccc3)cc2)c1=O	AD169	-	-	4.73 µM
Cc1cccc2c1OP(=O)(OC[C@H]1O[C@@H](n3cc(/C=C/Br)c(=O)[nH]c3=O)C[C@@H]1OC(=O)[C@H](C)N)OC2	AD169	HELF	plaque count	>128 µg/mL
c1ccc(C2O[C@@H]2c2ccccc2)cc1	TOWNE	HEL	virus yield	>50 µM
Nc1c(N=Nc2ccc([N+](=O)[O-])cc2)c(S(=O)(=O)O)cc2cc(S(=O)(=O)O)c(N=Nc3ccccc3)c(O)c12	AD169	HFF	cytopathic effect	>50 µM